Taken from: PubChem BioAssay AID504761 (Drosophila RNAi Screening Center, 2011)
Test: 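Insect host genes that dengue virus relies on to spread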 (primary screen). System: D.Mel-2 cells from Drosophila. Knock-down reagent: long dsRNA against Drosophila genes. Challenge: infection with dengue virus type 2; dose and infection time not stated. Measured: 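Cells stained for dengue envelope protein and imaged; percent of infected cells per well on duplicate plates, ranked by infection, with stained nuclei counted for cell number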. Direction: infection score: higher = more virus-infected cells; cell count: higher = more cells in the well. Call rule: 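Very low infection ranking in both replicate wells (chance probability at most 0.065), then a retest showing infection dropped 1.5-fold or more at p below 0.05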. Meaning of the calls: active = confirmed: knock-down lowers infection; inactive = not picked or not confirmed.
The deposit covers about 22,000 reagents; this is an unselected part of those that have a named target and a result. Over the whole deposit, 116 (0.52%) got an active call. 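Calls depend on retest data that are not deposited; infection was ranked per plate without normalising between plates; the unit of the infection score is not given.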 Raw values are not corrected between plates. Not all columns of the deposit are shown. Not given: the amount of reagent, the time to read-out.

predicted target | dsRNA | infection score, replicate 1 | infection score, replicate 2 | cell count, replicate 1 | call
Pomp | DRSC03201 | 13.2 | 5.35 | 1507 | inactive
Pomp | DRSC27581 | 10.7 | 11.4 | 6413 | inactive
Rlb1 | DRSC16826 | 3.19 | 3.44 | 6780 | inactive
Rlb1 | DRSC27846 | 5.56 | 3.43 | 1133 | inactive
CG7791 | DRSC04891 | 8.82 | 27.4 | 6414 | inactive
CG31460 | DRSC14370 | 4.58 | 14.7 | 6075 | inactive
CG12493 | DRSC08279 | 6.76 | 3.14 | 6344 | inactive
CG12493 | DRSC25535 | 7.92 | 3.6 | 6095 | inactive
CG8461 | DRSC16424 | 4.95 | 5.73 | 6444 | inactive
CG15201 | DRSC19648 | 14.8 | 14.1 | 5982 | inactive
Su(var)3-3 (Suppressor of variegation 3-3) | DRSC10250 | 7.64 | 7.01 | 5878 | inactive
Su(var)3-3 (Suppressor of variegation 3-3) | DRSC24846 | 2.22 | 4.2 | 6610 | inactive
Enoph (Enolase-phosphatase) | DRSC12201 | 3.47 | 1 | 6568 | inactive
RpS25 (Ribosomal protein S25) | DRSC16837 | 19 | 21.7 | 4870 | inactive
RpS25 (Ribosomal protein S25) | DRSC29990 | 43.8 | 26.3 | 3808 | inactive
enok (enoki mushroom) | DRSC04096 | 10.3 | 26.7 | 6277 | inactive
Delta | DRSC16648 | 5.3 | 8.08 | 7057 | inactive
Delta | DRSC24112 | 1.21 | 1.21 | 6602 | inactive
CG31345 | DRSC14193 | 1.13 | 9.76 | 6483 | inactive
CG31345 | DRSC14847 | 8.05 | 19.2 | 6238 | inactive
CG7600 | DRSC09681 | 9 | 2.35 | 6545 | inactive
CG7600 | DRSC25328 | 2.86 | 3.31 | 6851 | inactive
CG14984 | DRSC08442 | 4.13 | 0.82 | 6709 | inactive
CG14984 | DRSC27683 | 23.7 | 6.75 | 5872 | inactive
CG14744 | DRSC06480 | 6.62 | 8.21 | 6451 | inactive
CG13064 | DRSC09947 | 1.68 | 1.21 | 6124 | inactive
CG31126 | DRSC14623 | 8.29 | 11.6 | 5684 | inactive
CG17230 | DRSC15203 | 23.7 | 12 | 4834 | inactive
CG17230 | DRSC27268 | 5.37 | 7.93 | 6053 | inactive
CG32812 | DRSC18478 | 0.85 | 10.1 | 6562 | inactive
l(3)72Dr (lethal (3) 72Dr) | DRSC10478 | 1.19 | 0.77 | 6313 | inactive
CG33099 | DRSC15774 | 2.34 | 3.09 | 6113 | inactive
CG33099 | DRSC29273 | 19.9 | 11.7 | 2870 | inactive
Pglym87 (Phosphoglyceromutase 87) | DRSC15252 | 6.28 | 3.16 | 6589 | inactive
Pglym87 (Phosphoglyceromutase 87) | DRSC26066 | 3.21 | 3.93 | 6363 | inactive
CG9784 | DRSC20210 | 3.79 | 8.42 | 6839 | inactive
CG9784 | DRSC28204 | 17 | 14.4 | 3375 | inactive
eIF3l (eukaryotic translation initiation factor 3 subunit l) | DRSC10530 | 7.63 | 2.23 | 5791 | inactive
eIF3l (eukaryotic translation initiation factor 3 subunit l) | DRSC26186 | 17.7 | 13.7 | 5942 | inactive
CG17440 | DRSC18126 | 21.4 | 9.5 | 4994 | inactive
SLC5A11 (Sodium/solute co-transporter-like 5A11) | DRSC03088 | 4.87 | 4.12 | 6591 | inactive
CG30222 | DRSC04125 | 4.43 | 1.41 | 6837 | inactive
CG30222 | DRSC04262 | 2.64 | 9.14 | 6882 | inactive
CG12713 | DRSC09900 | 5.55 | 3.06 | 6020 | inactive
CG12713 | DRSC24697 | 12.3 | 13.5 | 5780 | inactive
spen (split ends) | DRSC00839 | 1.54 | 1.09 | 5079 | inactive
Cyp4s3 (Cytochrome P450 4s3) | DRSC20241 | 7.65 | 6.12 | 6709 | inactive
Cyp4s3 (Cytochrome P450 4s3) | DRSC22340 | 0.92 | 6.61 | 6085 | inactive
Cyp4s3 (Cytochrome P450 4s3) | DRSC24027 | 2.51 | 0.97 | 6222 | inactive
Mal-A5 (Maltase A5) | DRSC07232 | 1.51 | 6.53 | 6312 | inactive
Mal-A5 (Maltase A5) | DRSC29506 | 7.23 | 3.07 | 346 | inactive
Dop1R2 (Dopamine 1-like receptor 2) | DRSC13958 | 3.5 | 2.43 | 5771 | inactive
Dop1R2 (Dopamine 1-like receptor 2) | DRSC15379 | – | 2.03 | 337 | inactive
Dop1R2 (Dopamine 1-like receptor 2) | DRSC28272 | 12.2 | 1.5 | 6251 | inactive
Kah (Kahuli) | DRSC07887 | 3.39 | 9.92 | 6050 | inactive
Kah (Kahuli) | DRSC08515 | 3.85 | 2.27 | 6389 | inactive
Kah (Kahuli) | DRSC25608 | 0.85 | 1.53 | 6735 | inactive
Urm1 (Ubiquitin-related modifier 1) | DRSC22941 | 1.36 | 7.44 | 6473 | inactive
Urm1 (Ubiquitin-related modifier 1) | DRSC29463 | 19.8 | 17.9 | 4752 | inactive
